Among the data in patent publication US20060115815A1 (priority 2002, published 2006) are EC50 values, retold here.

A word on the EC50: it is the concentration needed to bring the measured effect to its halfway point.

Structures are written as SMILES.

The target of the experiment is 84V90M (Human immunodeficiency virus type 1 group M subtype B, UniProt P04585, I572V/L578M). In words: Cell-based assay (MT-4) EC50, 84V90M. The note with it: read-out: Cell-based assay (MT-4) EC50 84V90M; MT-4, 84V90M; tested form: TFA. Further details: species or system HIV-1.

For the compound `CCOP(=O)(COc1ccc(C[C@@H]2[C@H](O)[C@@H](O)[C@@H](Cc3ccccc3)N(Cc3ccc4[nH]ncc4c3)C(=O)N2Cc2ccc3[nH]ncc3c2)cc1)OCC`, the EC50 came to 40 nM.
